# Only a part is listed here, and it is no random draw. Measured potencies and affinities stand elsewhere. Activity calls are given as the source filed them. How the calls were made is not given here.
# Experiment: Vero cell cytotoxicity, cytotoxicity control for flavivirus capping enzyme inhibitors (AID 588742)
# Details: Vero cells viability, cytotoxicity counter-screen; at 40 µM (top of the series)
row,Compound,viability
1,Nc1cccc2ccc([As](=O)(O)O)cc12,inactive: 89%
2,O=[N+]([O-])c1ccc(-c2cc([N+](=O)[O-])c(O)c([N+](=O)[O-])c2)cc1,inactive: 94.2%

# Reference: PubChem BioAssay AID588742 (Southern Research Specialized Biocontainment Screening …, 2011)
